In patent US20150086555A1 (THERACLONE SCIENCES, published 2015):

Key:
[1] = molecular target: hemagglutinin on whole influenza A virions, A/Wisconsin/67/05 H3N2 (Influenza A virus …)
[2] = molecular target: T1, Hemagglutinin (HA) of influenza A virus A/Wisconsin/67/05 H3N2, on whole virions (Influenza A virus A/Wisconsin/67/2005 …); assay: ELISA on coated inactivated whole virions; transfection supernatant, set 5
T1 construct: whole, on cells

[3] = molecular target: Hemagglutinin (HA) of influenza A virus A/Japan/305/57 H2N2, on whole virions (Influenza A virus A/Japan/305/1957 …)
[4] = molecular target: hemagglutinin (HA) of influenza A/Solomon Islands/3/06 (H1N1) on whole virions (Influenza A virus A/Solomon …)
[5] = molecular target: T2, hemagglutinin (HA) of influenza A/Wisconsin/67/05 (H3N2) on whole virions (Influenza A virus …); assay: ELISA; BCC supernatant on coated inactivated whole virions
T2 construct: whole, on cells

Binder	ELISA: Virus Binding (OD450) [1] [OD450]	ELISA virus binding (OD450) [2] [OD450]	also measured
TCN-522 (3212_I12) (antibody, V domains shown) VH: QVQLQQWGAGLLKPSETLSLTCTVSGGSLTDYSWNWIRQPPGKGLEWIGDTLHNGYTNYNPSLRGRVSISIDTSKNQVSLRLTSVTAADTALYYCARGSGGYGGFDYFGKLRTWDFWGQGTLVTVSS VL: DIQLTQSPSSLSASVGDRVTITCRASQGIRNDLGWYQQKPGNAPKRLIFGASSLQSGVPSRFSGSGSGTEFTLTISSLQPEDFATYYCLQHNSYPYTFGQGTKLEIK	0.12		
TCN-530 (5248_H10a) (antibody, V domains shown) VH: QVQLVQSGAEVRKPGSSVKVSCKASGGPFMSYAIGWVRQAPGQGLEWMGGINPVFGRPHYAQKFQGRVTIATDDSTKTSYMELSSLTSEDTGMYYCASRYSRSSPGTFESWGQGTLVTVSS VL: EIVMTQFPATLSVSPGERVTLSCRASQSVSNNLAWYQQKPGQPPRLLIYDASTRATGVPAKFSGTGSGTEFTLSISSLQSEDFAVYYCQQYHNWPPSYSFGLGTKLEIK	0.13		
TCN-533 (5256_A17a) (antibody, V domains shown) VH: QVQLVQSGADVKKPGSSVTVSCKASGGSFSNYGINWVRQAPGQGLEWMGGIIPLINAPNYAPKFQGRVTITADMFSNIVSLQLTSLRTDDTAVYYCARRKMTTAIDYWGQGTLVTVSS VL: QPVLTQPPSASASLGASVTLTCTLSSAYSNYKVDWYQQRPGKGPRFVMRVGTGGIVGSKGDGIPDRFSVLGSGLNRYLTIKNIQEEDESDYHCGADHGSGSNFVSPYVFGGGTKLTVL	0.16		
TCN-534 (5249_B02) (antibody, V domains shown) VH: QVQLVQSGAEVKKPGSSVKVSCRESGGTFNGYTITWVRQAPGQGLEWMGGIIPMMGTVNYAQKLQGRVTITTDYFTKTAYMDLNNLRSEDTAMYYCVKIRYTGQQLLWGQGTLVTVSS VL: DIQMTQSPSTLSASIGDRVTITCRASQSIASWLAWYQQKPGKAPKLLIYEAVNLESGVPSRFSGSGSGTDFTLTISSLQPDDFATYFCQHYGTISQTFGGGTKVEIK	0.13		
TCN-536 (5095_N01) (antibody, V domains shown) VH: QVQLQQWGAGLLKPSETLSLTCAVYGGSFSVSGYYWSWIRQPPGRGLEWIGEISHGGSTNYNPSLKSRVTISVDTTKNQFSLRLSSVTAADTAVYYCARGTDPDTEVYCRVGNCAAFDYWGQGSLVTVSS VL: EIILAQSPGTLSLSPGERATLSCRASQFVSTRSLAWYQQRPGQAPRLLIYGASSRATGIPDRFSGSGSGTDFTLTISRLEPEDFAVYYCQHYGYSPRYAFGQGSKVEIK	3.6		
TCN-552 (5249_I23) (antibody, V domains shown) VH: QVQVVQSGAEVKKPGSSVRVSCQASGGTFMNYAIIWVRRAPGQGLEWMGGIIPVFPTPNYAQMFQGRVTISTDESRSTSFLELTNLRYEDTAVYYCARRIYHGGNSGFDFWGQGTLVTVSS VL: EIVLTQSPATLSLSPGERATLSCRASQSVGNYLAWYQQKPGQAPRLLIYDSSNRAPGIPARFSGSGSGTDFTLTISSLAPEDFAVYYCQQRSKWPPMYSFGHGTKLEIK [TCN-552 (5249_I23), listing 1 of 2 here]	0.12		
TCN-553 (5261_C18) (antibody, V domains shown) VH: QVQVVQSGTEVKKPGSSVKVSCQTSGGRFMSYAITWVRQAPGQGLEWMGGIVPVFGTANYAQKFQGRVTITTDDSTRTAYMELSSLRSEDTAVYYCGFRYGSGYGFDSWGQGTLVTVSS VL: EIVLTQSPGTLSLSPGERATLSCRASQSVSSSYLAWYQKKPGQAPRLLIYGASTRATGIPDRFTGSGSGTDFTLSISRLEPEDFAVYYCQHFGTSVFTFGGGTKVEIK [TCN-553 (5261_C18), listing 1 of 2 here]	0.16		
TCN-558 (5248_H10b) (antibody, V domains shown) VH: QVQLVQSGSEVKKPGTSVKVSCTASGSVFTNYGISWVRQAPGQGLEWMGGIIPLFGAAKYAQKFQGRVTITADESTKTVYMELSRLTSKDTAIYFCAKAPRVYEYYFDQWGQGTPVTVSS VL: EIVMTQFPATLSVSPGERVTLSCRASQSVSNNLAWYQQKPGQPPRLLIYDASTRATGVPAKFSGTGSGTEFTLSISSLQSEDFAVYYCQQYHNWPPSYSFGLGTKLEIK	0.13		
TCN-563 (5237_B21) (antibody, V domains shown) VH: QVQLAQSGAEVKRPGSSVKVSCTASGGIFRKNAISWVRQAPGQGLEWMGGIIAVFNTANYAQKFQGRVKITADESGNTAYMELSSLRSDDTAVYYCASHPKYFYGSGSYPDFWGQGTLVTVSS VL: QSALTQPRSVSGSPGQSVTISCTGSSSDVGASNSVSWYQQHPGKAPKLVIYDVTERPSGVPHRFSGSKSGNTASLTVSGLQPEDEADYFCCAYGGKYLVVFGGGTKVTVL	0.12		
TCN-537 (3194_D21) (antibody, V domains shown) VH: QVQLQQWGSGLLKPSETLSLTCAVYGGSFRDDYWTWIRQPPGKGLEWIGEINHSGRTNYNPSLKSRVTISVDTSLKQFSLKVISVTAADTAVYYCARGTSHVSRYFDWLPPTNWFDPWGQGTQVTVSS VL: DIVLTQSPGTLSLSPGERATLSCRASQSVSSSYLAWYQQKPGQAPRLVMYGAATRATGIPDRFSGSGSGPDFTLTISRLEPEDFAMYYCQQYGNSPITFGQGTRLEIK		0.11	ELISA virus binding (OD450) [3]: 3.48 OD450
TCN-538 (3206_O17) (antibody, V domains shown) VH: QITLKESGPTLVKPTQTLTLTCVFSGFSLSITGVRVGWIRQPPGKALEWLALISWDDEKHYSPSLQSRLTITKDTSKNQVVLTMTNLDPVDTATYYCARSTDRGHVLRYFGWMLPGDAFDVWGQGTMVTVSS VL: DIVMTQSPDFLPVSLGERATINCKSSQRVLYSSNNKNYLAWYQLKPGQPPKLIIYWASTRESGVPDRFSGSGSGTEFTLTISSLQAEDVAVYYCQQYYSRPYTFGQGTKLEIK		0.12	ELISA virus binding (OD450) [3]: 3.37 OD450
TCN-543 (5081_G23) (antibody, V domains shown) VH: QVHLVQSGAEVRKPGDSVKVSCKTSGYTFSTYPVAWVRQVPGQGLEWMGWISTYNGNTNFAQNFQGRVTLTTDTTTNTAYMEVRSLKFDDTAVYYCARVEGSYRDFWNNQNRFDPWGQGTLVTVSS VL: SYVLTQPPSVSVAPGQTARISCGGSNIGGKSVHWYQQKPGQAPVLVVYDDSGRPSGIPERFSGSNSGDTATLTISRVEAGDEADYFCQVWDNFGGVFGTGTKVTVL		2.23	ELISA virus binding (OD450) [3]: 3.64 OD450
TCN-545 (5082_I15) (antibody, V domains shown) VH: QVQLQQWGAGLLKPSETLSLSCAVFGGSFSDYYWTWIRQPPGKGLEWIGEIKHSGRTNYNPSLESRVTISVDTSKNQFSLKLSSVTAADTAIYYCARGTDPDTEGYCRSGSCSAFDFWGQGTLVTVSS VL: EIVLTQSPGTLSLSPGERATLSCRASHFVNYRSLAWYQQTPGQVPRLLIYGASTRATGIPDRFSGSGSGTDFTLTISRLEPEDFAVYFCQQYGGSPRYTFGQGTRLEIK		3.62	ELISA virus binding (OD450) [3]: 0.1 OD450
TCN-551 (5243_D01) (antibody, V domains shown) VH: EVQLVQSGSEVKKPGESLKISCKGSGYSFSNYWIGWVRHMPGKGLEWMGIIYPGDSDTRYSPSFQGQVTMSADKSSSTVYLQWSSLKASDTAIYYCARRGGHSFGYGSGGDTHSEFDSWGQGTLVTVSS VL: QSVLTQSPSVSAAPGQKVTISCSGSDSNIGDYFVCWYQHLPGKPPQLLIYENNKRPSGIPDRFSGSKSGTSATLGITGIQTGDEADYYCATWDGSLSAWVFGGGTKLTVL		0.27	ELISA virus binding (OD450) [3]: 0.1 OD450
TCN-556 (5089_K12) (antibody, V domains shown) VH: QVQLVQSGAEVKKPGASVKVSCKASGYTFIGYDMHWVRQAPGQGLEWMGWINAKRGGTNYAQKFQGRVTMTRDTSISTAYMELNSLRSDDTAVYYCARGVGSRTTIFGVLNPEFDYWGQGTLVTVSS VL: QSALTQPPSASGSPGQSVTISCTGSSSDVGGYDYVSWYQQHPGKAPKLLIYEVTKRPSGVPDRFSGSKSGNTASLTVSGLQAEDEADYYCSSYAGNYNHVFGPGTKVTVL [TCN-556 (5089_K12), listing 1 of 2 here]		0.34	
TCN-552 (5249_I23) (antibody, V domains shown) VH: QVQVVQSGAEVKKPGSSVRVSCQASGGTFMNYAIIWVRRAPGQGLEWMGGIIPVFPTPNYAQMFQGRVTISTDESRSTSFLELTNLRYEDTAVYYCARRIYHGGNSGFDFWGQGTLVTVSS VL: EIVLTQSPATLSLSPGERATLSCRASQSVGNYLAWYQQKPGQAPRLLIYDSSNRAPGIPARFSGSGSGTDFTLTISSLAPEDFAVYYCQQRSKWPPMYSFGHGTKLEIK [TCN-552 (5249_I23), listing 2 of 2 here]			ELISA virus binding (OD450) [4]: 3.57 OD450; ELISA virus binding (OD450) [5]: 0.06 OD450
TCN-553 (5261_C18) (antibody, V domains shown) VH: QVQVVQSGTEVKKPGSSVKVSCQTSGGRFMSYAITWVRQAPGQGLEWMGGIVPVFGTANYAQKFQGRVTITTDDSTRTAYMELSSLRSEDTAVYYCGFRYGSGYGFDSWGQGTLVTVSS VL: EIVLTQSPGTLSLSPGERATLSCRASQSVSSSYLAWYQKKPGQAPRLLIYGASTRATGIPDRFTGSGSGTDFTLSISRLEPEDFAVYYCQHFGTSVFTFGGGTKVEIK [TCN-553 (5261_C18), listing 2 of 2 here]			ELISA virus binding (OD450) [4]: 3.6 OD450; ELISA virus binding (OD450) [5]: 0.07 OD450
TCN-554 (5277_M05) (antibody, V domains shown) VH: QVQLVQSGADLKKPGASVKVSCKASGYTFTDYYIHWVRQAPGQGLEWMGWINPESGDTKYAQKFQGRVTMTRDTSITTAYMELGRLRSDDTAVYYCARDVSTTWSWFAPWGQGTLVTVSS VL: DIVMTQSPDSLAVSLGERATINCRSSQSIFHNSNNENYLAWYQQKPGQPPKLLIYWASTRESGVPDRFSGSGSGTDFTLTISSLQAEDVAVYFCQQYYNAPLTFGGGTKVEIK			ELISA virus binding (OD450) [4]: 0.06 OD450; ELISA virus binding (OD450) [5]: 1.09 OD450
TCN-556 (5089_K12) (antibody, V domains shown) VH: QVQLVQSGAEVKKPGASVKVSCKASGYTFIGYDMHWVRQAPGQGLEWMGWINAKRGGTNYAQKFQGRVTMTRDTSISTAYMELNSLRSDDTAVYYCARGVGSRTTIFGVLNPEFDYWGQGTLVTVSS VL: QSALTQPPSASGSPGQSVTISCTGSSSDVGGYDYVSWYQQHPGKAPKLLIYEVTKRPSGVPDRFSGSKSGNTASLTVSGLQAEDEADYYCSSYAGNYNHVFGPGTKVTVL [TCN-556 (5089_K12), listing 2 of 2 here]			ELISA virus binding (OD450) [4]: 2.7 OD450; ELISA virus binding (OD450) [5]: 0.06 OD450
